Pooled drug test results. Numbers come from NIAID ChemDB, via PubChem.

Shared fields: growth or infection tests; species: HIV-1; cell line: HeLa; endpoint: EC50

Blank or dashed fields: not listed here. ECn is the concentration giving n% inhibition of infection, replication or growth. Neighbouring rows are from separate reports.

{"smiles": "Cc1nnc(SCC(=O)Nc2ccc(S(N)(=O)=O)cc2Cl)n1-c1cccc2ccccc12", "changes": "Y188L", "result": "0.191 µM"}
{"smiles": "CCn1nc(Cc2ccc(Oc3ccccc3)cc2)cc1C1CCN(C[C@H]2CN([C@@H](C(=O)O)C(C)(C)C)C[C@@H]2c2cccc(F)c2)CC1", "strain": "BaL", "read by": "β-galactosidase", "conditions": "50% human serum", "result": "<0.3 µM"}
{"smiles": "Cc1ccc2cc(Cl)cnc2c1-n1c(C)nnc1SCC(=O)Nc1ccc(S(N)(=O)=O)cc1Cl", "result": "0.002 µM"}
{"smiles": "Cc1cc(S(N)(=O)=O)ccc1NC(=O)COc1ccc(Cl)cc1C(=O)c1cc(C#N)cc([N+](=O)[O-])c1", "changes": "K103N", "result": "0.0014 µM"}
{"smiles": "C[C@H](Cn1cnc2c(N)ncnc21)OCP(=O)(O)O", "strain": "Recombinant", "changes": "RT-A62T V118I M184V", "read by": "luciferase", "result": "0.61 µM"}
{"smiles": "CCn1nc(Cc2ccc(C#N)cc2)cc1C1CCN(C[C@H]2CN([C@@H](C(=O)O)C(C)C)C[C@@H]2c2cccc(F)c2)CC1", "strain": "BaL", "read by": "β-galactosidase", "conditions": "50% human serum", "result": "<0.1 µM"}
{"smiles": "Nc1ccn([C@H]2C[C@H](O)[C@](CO)(CF)O2)c(=O)n1", "changes": "RT-K65R", "read by": "β-galactosidase", "result": "0.065 µM"}
{"smiles": "Cc1cn([C@H]2C=C[C@@H](CO)O2)c(=O)[nH]c1=O", "strain": "Recombinant", "changes": "RT-M41L V118I M184V", "read by": "luciferase", "result": "1.34 µM"}
{"smiles": "Cc1ccc2c(C)ccc(-n3c(C)nnc3SCC(=O)Nc3ccc(S(N)(=O)=O)cc3Cl)c2c1", "changes": "Y188L", "result": "0.006 µM"}
{"smiles": "Cc1cc(S(N)(=O)=O)ccc1NC(=O)COc1ccc(Cl)cc1C(=O)c1cc(C#N)cc(C(=O)N2CCCC2)c1", "changes": "Y181C", "result": "0.615 µM"}
{"smiles": "C#C[C@]1(CO)O[C@@H](n2cc(C)c(=O)[nH]c2=O)C[C@@H]1O", "changes": "RT-Y181C", "read by": "β-galactosidase", "result": "0.13 µM"}
{"smiles": "Cc1nnc(SCC(=O)Nc2ccccc2Br)n1-c1cccc2ccccc12", "changes": "Y188L", "result": "0.724 µM"}
{"smiles": "O=c1[nH]cnc2c1ncn2[C@H]1CC[C@@H](CO)O1", "strain": "RT-M41L T69SSG T215Y", "changes": "RT M41L T69SSG insertion T215Y", "read by": "β-galactosidase", "result": "12.2 µM"}
{"smiles": "CCn1nc(Cc2cccnc2)cc1C1CCN(C[C@H]2CN([C@@H](C(=O)O)C3CCCCC3)C[C@@H]2c2cccc(F)c2)CC1", "strain": "BaL", "read by": "β-galactosidase", "result": "<0.0004 µM"}
{"smiles": "Cc1cc(S(N)(=O)=O)ccc1NC(=O)COc1ccc(Cl)cc1C(=O)c1cc(C#N)cc(C(=O)N2CCC2)c1", "changes": "K103N", "result": "0.14 µM"}
{"smiles": "N#Cc1cc2[nH]c3ccccc3c2n(-c2ccc([N+](=O)[O-])cc2)c1=O", "strain": "NL4-3 WT", "read by": "luciferase", "result": "0.156 µM"}
{"smiles": "CCc1ccc(-n2c(C)nnc2SCC(=O)Nc2ccc(C)cc2Cl)c2ccccc12", "changes": "Y188L", "result": "0.11 µM"}
{"smiles": "C#C[C@]1(CO)O[C@@H](n2cc(I)c(=O)[nH]c2=O)C[C@@H]1O", "strain": "RTMDR", "changes": "RT", "read by": "β-galactosidase", "result": "0.32 µM"}
{"smiles": "CCn1nc(Cc2ccc(C(F)(F)F)cc2)cc1C1CCN(C[C@H]2CN([C@@H](C(=O)O)C3CCCCC3)C[C@@H]2c2cccc(F)c2)CC1", "strain": "BaL", "read by": "β-galactosidase", "result": "<0.0004 µM"}
{"smiles": "Cc1ccc(NC(=O)CSc2nnc(C)n2-c2c(C)ccc3ccccc23)c(Cl)c1", "result": "8.32 µM"}
{"smiles": "Cc1cc(S(N)(=O)=O)ccc1NC(=O)COc1ccc(Cl)cc1C(=O)c1cc(C#N)cc(C(=O)N2CCOCC2)c1", "changes": "K103N", "result": "0.43 µM"}
{"smiles": "CC[C@@H](C)[C@H](C(=O)O)N1C[C@H](CN2CCC(c3cc(Cc4ccc(OC)c(OC)c4)nn3CC)CC2)[C@@H](c2cccc(F)c2)C1", "strain": "BaL", "read by": "β-galactosidase", "result": "<0.0004 µM"}
{"smiles": "Cc1ccc(NC(=O)CSc2nnc(C)n2-c2cc(C)c(C)c3ccccc23)c(Cl)c1", "changes": "Y188L", "result": "0.158 µM"}

Again, the opening 2 rows:

| smiles | strain | changes | read by | conditions | result |
|---|---|---|---|---|---|
| Cc1nnc(SCC(=O)Nc2ccc(S(N)(=O)=O)cc2Cl)n1-c1cccc2ccccc12 | - | Y188L | - | - | 0.191 µM |
| CCn1nc(Cc2ccc(Oc3ccccc3)cc2)cc1C1CCN(C[C@H]2CN([C@@H](C(=O)O)C(C)(C)C)C[C@@H]2c2cccc(F)c2)CC1 | BaL | - | β-galactosidase | 50% human serum | <0.3 µM |